Tests used:
Experiment in all cases: AK assay 384-well format, Prestwick library screening
[1] = system: E. faecium; type: cell-based, Enterococcus faecium; details: planktonic E. faecium; 50 μM final drug concentration; cutoff for positive-scoring molecules 3-fold increase
[2] = system: S. aureus strain USA300-0114; type: cell-based, Staphylococcus aureus; details: planktonic S. aureus; 50 μM final drug concentration; cutoff for positive-scoring molecules 3-fold increase
[3] = system: K. pneumoniae; type: cell-based, Klebsiella pneumoniae; details: planktonic K. pneumoniae; 50 μM final drug concentration; cutoff for positive-scoring molecules 3-fold increase
[4] = system: A. baumannii strain 98-37-09; type: cell-based, Acinetobacter baumannii; details: planktonic A. baumannii; 50 μM final drug concentration; cutoff for positive-scoring molecules 3-fold increase
[5] = system: P. aeruginosa; type: cell-based, Pseudomonas aeruginosa; details: planktonic P. aeruginosa; 50 μM final drug concentration; cutoff for positive-scoring molecules 3-fold increase
[6] = system: E. cloacae; type: cell-based, Enterobacter cloacae; details: planktonic E. cloacae; 50 μM final drug concentration; cutoff for positive-scoring molecules 3-fold increase
[7] = system: E. coli; type: cell-based, Escherichia coli; details: planktonic E. coli; 50 μM final drug concentration; cutoff for positive-scoring molecules 3-fold increase

## NC(=O)Nc1ccc([As](=O)(O)O)cc1
[1]
  AK-based Prestwick Library Screening Results, E. faecium (increase in extracellular AK activity): 1.0
[2]
  AK-based Prestwick Library Screening Results, S. aureus (increase in extracellular AK activity): 0.6
[3]
  AK-based Prestwick Library Screening Results, K. pneumoniae (increase in extracellular AK activity): 0.5
[4]
  AK-based Prestwick Library Screening Results, A. baumannii (increase in extracellular AK activity): 0.6
[5]
  AK-based Prestwick Library Screening Results, P. aeruginosa (increase in extracellular AK activity): 0.6
[6]
  AK-based Prestwick Library Screening Results, E. cloacae (increase in extracellular AK activity): 0.7
[7]
  AK-based Prestwick Library Screening Results, E. coli (increase in extracellular AK activity): 0.6

Reference: patent US10004701B2, “Methods and compositions for treating infection” (UNIVERSITY OF ROCHESTER, priority 2012, dated 2018)
